Human monoclonal antibodies against the spike receptor-binding domain (heavy:light variable regions). IC50 against pseudoviruses bearing the spike of naturally observed variants; lower = stronger; >10 µg/ml means not reached at the top dose. No active / inactive call. The stated detection limit is 0.0005 µg/ml; values near or below 0.001 µg/ml lie at the floor of the assay.
B1: BD58-0513 (protein)
chain 1: EVQLVQSGAEVKKPGESLKISCKASGYNFTNYWIGWVRQMPGKGLEWMGIIYPGDSDTRYSPSLQSQVTISADKSIRTAYLQWTSLKASDTAMYYCARVWVAVSMTTADYFDYWGQGTLVTVSS
chain 2: DIQLTQSPSSLSASVGDRVTITCRASQTISRYLNWYQQKQGKAPKVLIYAASSLQSGVPSRFSGRGSGTDFTLTISTLQPEDFATYYCQQSYSTLYTFGQGTKLEIK
B2: BD58-0517 (protein)
chain 1: EVQLVESGGGLVKPGGSLRLSCAASGFTFSRYSMNWVRQAPGKGLEWVSSLSSRSTYLYYADSVKGRFTISRDNAKNSLYLQMNSLRAEDTAVYYCARDSADIYDYVWGTYRLGDYWGQGTLVTVSS
chain 2: QSVLTQPPSASGTPGQRVTISCSGSNSNIKSNAVNWYQQLPRTAPKLLLYNNNQRPSGVPDRFSGSKSGTSASLAISGLQSEDEADYYCAAWDDSLTGWVFGGGTQLTVL
B3: BD58-0528 (protein)
chain 1: QVQLVQSGAEVKKPGASVTVSCKVSGYTLIELSMHWVRQAPGKGLEWMGSFDPEHRETIYAQKFQGRVTMTEDTSTDTAYMELSSLRSEDTAVYYCATSPTYYYGSGSFYKAFDSWGQGTLVTVSS
chain 2: EIVLTQSPATLSLSPGERATLSCRASQSVSSYLAWYQQKPGQAPRLLIYDASNRATGIPARFSGSGSGTDFTLTISSLEPEDFAVYYCQQRSDWPPWTFGQGTKVEIK
B4: BD58-0546 (protein)
chain 1: EVQLVESGGGVVQPGGSLRLSCAVSGFRFDDYAMHWVRQTPGKGLEWVSLISGDGRSAYYADSVKGRFTISRDNSENSLYLQMNSLRTEDTAFYYCSKDIGITSFWYFGATQIDYWGQGTLVTVSS
chain 2: QSVLTQPPSVSAAPGQKVTISCSGSSSNIGNNYVSWYQQLPGTAPKLLIFDNDQRPSGIPDRFSGSKSVTSATLAITGLQTGDEADYYCGTWDSSLSAGVFGGGTKLTVL
B5: BD56-286 (protein)
chain 1: EVQLVQSGAEVKKPGESLKISCKGSGYSFTNYWIGWVRQMPGIGLEWMGIIYPGDSDTRYSPSFQGQVTISADKSISTAYLQWSSLKASDTAMYYCAIPNGYSSGCYFYWGQGTLVTVSS
chain 2: EIVMTQSPATLSVSPGERATLSCRASQSVSSNLAWYQQKPGQAPRLLIYDASTRATGIPARFSGSGSGTEFTLTISSLQSEDFAVYYCQQYNNWASTFGQGTKVEIK
B6: BD56-1190 (protein)
chain 1: EVQLVESGGGFVQPGRSLRLSCAASGFTFDDYAMHWVRQAPGKGLEWVSGISWNSGSIGYGDSVKGRLTISRDNAKNSLYLQMNSLRAEDTALYYCARSRISMITVAGGAFDIWGQGTMVTVSS
chain 2: DIQMTQSPSSLSASVGDRVTITCQASQDISNYLSWYQQKPGKAPKLLIYDASNLERGVPSRFSGSGSGTDFTFTISSLQPEDIATYYCQQYDNLPPPFTFGPGTKIDIK
B7: BD56-1195 (protein)
chain 1: QVQLQESGPGLVKPSETLSLTCTVSGGSISTDYWSWIRQPPGKGLEWIGLIDDSGSTNYNPSLKSRVSISVDTSKNQFSLKLSSVTAADTAVYYCARKIPGQWDDRGYGMDVWGQGTTVTVSS
chain 2: SDELTQPPSVSVSPGQTARITCSGDALPQQYAYWYQQKPGQAPVMVIYKDSERPSGIPERFSGSSSGTTVTLTISGVQAEDEADYYCQSADNNGTPVVFGGGTKLTVL
B8: BD56-235 (protein)
chain 1: EVQLLESGGGLVQPGGSLRLSCAASGFTFRSYVMSWVRQAPGKGLEWVSAISGSGGSTDYADSVKGRFTISRDNSKNTLYLQMNSLRAEDTAVYYCAKEDDDDYGALSFDSWGQGTLVTVSS
chain 2: QSALTQPASVSGSPGQSITISCTGSSSDVGSYILVSWYQQHPGKAPKLMIYEGSKRPSGISNRFSGSKSGNTASLTIYGLQAEDEADYYCCSFADSRVFGGGTKVTVL
B9: BD56-1209 (protein)
chain 1: QVQLVQSGAEVKKPGSSVKVSCKASGGTFSNYASSWVRQAPGQGLEWMGGIIPMFGTANYAQKFQGRVTITADESTNTAYMELSSLRSEDTAVYYCARAGLGSWYGGSDGENYFDYWGQGTLVTVSS
chain 2: DIQMTQSPSSLSASVGDRVTITCRASQNISNYLNWYQQKPGKAPKLLIYAASSLHSGVPSRFSGSGSGTDFTLTISSLQPEDFATYYCQQSYNTLYTFGQGTKLEIK
B10: BD56-1238 (protein)
chain 1: QVQLVESGGGVVQPGRSLRLSCAASGFTFSGFAMHWVRQAPGKGLDWVAVISYDGSNKYYADSVKGRFTVSRDSSKSTLYLQMNSLKTEDTALYYCARDSLLGNWNDPWDAFDIWGRGTMVTVSS
chain 2: QSVLTQPPSVSGAPGQRVTISCTGSSSNIGAGYAVHWYQQLPGTAPRLLISDNNNRPSGVPDRFSGSTSGTSASLAITGLQAEDEADYYCQSYDTSLSHSVVFGGGTKLTVL

Key:
Test in all cases: pseudovirus neutralization IC50; higher = weaker neutralization
[1] = molecular target: SARS-CoV-2 Omicron BA.1 spike pseudovirus
Experimental: (§1)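 Single-round VSV luciferase pseudovirus mixed with antibody dilutions for 1 h and put on Huh-7 cells for about a day; IC50 from the dose curve.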

[2] = molecular target: SARS-CoV-2 Omicron BA.2 spike pseudovirus
Experimental: as §1

[3] = molecular target: SARS-CoV-2 Omicron BA.2.75 spike pseudovirus
Experimental: as §1

[4] = molecular target: SARS-CoV-2 Omicron BA.2.75.2 spike pseudovirus
Experimental: as §1

[5] = molecular target: SARS-CoV-2 Omicron BA.5 spike pseudovirus
Experimental: as §1

[6] = molecular target: SARS-CoV-2 Omicron BM.1.1.1 spike pseudovirus
Experimental: as §1

[7] = molecular target: SARS-CoV-2 Omicron BQ.1.1 spike pseudovirus
Experimental: as §1

[8] = molecular target: SARS-CoV-2 Omicron BR.2 spike pseudovirus
Experimental: as §1

[9] = molecular target: SARS-CoV-2 Omicron CA.1 spike pseudovirus
Experimental: as §1

[10] = molecular target: SARS-CoV-2 Omicron XBB spike pseudovirus
Experimental: as §1

[11] = molecular target: SARS-CoV-2 early D614G spike pseudovirus
Experimental: as §1

| Binder | pseudovirus neutralization IC50 [1] [µg/mL] | pseudovirus neutralization IC50 [2] [µg/mL] | pseudovirus neutralization IC50 [3] [µg/mL] | pseudovirus neutralization IC50 [4] [µg/mL] | pseudovirus neutralization IC50 [5] [µg/mL] | pseudovirus neutralization IC50 [6] [µg/mL] | pseudovirus neutralization IC50 [7] [µg/mL] | pseudovirus neutralization IC50 [8] [µg/mL] | pseudovirus neutralization IC50 [9] [µg/mL] | pseudovirus neutralization IC50 [10] [µg/mL] | pseudovirus neutralization IC50 [11] [µg/mL] |
| --- | --- | --- | --- | --- | --- | --- | --- | --- | --- | --- | --- |
| B1 | > 10 | 0.000655 | 0.0971 | 0.0986 | 0.00122 | 0.075 | 0.0307 | 0.115 | 0.0778 | 0.135 | > 10 |
| B2 | 0.0154 | 0.00109 | 0.0118 | 0.034 | 0.000788 | 0.0666 | 0.0509 | 0.0654 | 0.0833 | 0.0438 | > 10 |
| B3 | 0.0039 | 0.00142 | > 10 | > 10 | > 10 | > 10 | > 10 | > 10 | > 10 | > 10 | > 10 |
| B4 | > 10 | 0.000497 | 1.48 | 3.53 | 0.126 | > 10 | > 10 | > 10 | > 10 | > 10 | > 10 |
| B5 | 0.00657 | 0.0293 | 0.115 | 0.178 | 0.0376 | 0.16 | 4.19 | 0.173 | 0.149 | > 10 | > 10 |
| B6 | 3.12 | 0.0475 | > 10 | > 10 | > 10 | > 10 | > 10 | > 10 | > 10 | > 10 | > 10 |
| B7 | 0.00441 | 0.00262 | 0.00137 | 0.00255 | 0.00299 | 0.00289 | 0.00694 | 0.00275 | 0.00278 | > 10 | > 10 |
| B8 | 0.0353 | 0.0335 | 1.13 | 0.99 | > 10 | > 10 | > 10 | > 10 | > 10 | > 10 | > 10 |
| B9 | 0.733 | 0.196 | > 10 | > 10 | > 10 | > 10 | > 10 | > 10 | > 10 | > 10 | > 10 |
| B10 | 0.00048 | 0.000828 | 0.00134 | 0.0111 | 0.00202 | 0.00227 | 0.00355 | 0.0013 | 0.00131 | 0.00424 | > 10 |
